A mixed list of measured activities; the numbers were collected in NIAID ChemDB.

Shared fields: tests in culture; species: Cryptosporidium parvum; read-out: inhibition

Rows are shuffled and stem from different studies. Blank or dashed fields: not listed here. Inhibition is in % at the dose shown (toxicity tests: loss of growth or viability).

compound | dose | strain or isolate | read by | cells | result
CCN(CC)CCCC(C)Nc1ccnc2cc(Cl)ccc12 | 20 µg/mL | Calf isolate | - | L929 | 41.4%
Cc1cn([C@H]2C[C@H](N=[N+]=[N-])[C@@H](CO)O2)c(=O)[nH]c1=O | 50 µg/mL | - | - | - | 14%
Cc1cc(-n2c(=O)[nH]c(=O)n(C)c2=O)ccc1Oc1ccc(SC(F)(F)F)cc1 | 1 µM | - | - | HCT-8 | 0%
CO[C@H]1/C=C/O[C@@]2(C)Oc3c(C)c(O)c4c(O)c(c5c(c4c3C2=O)NC2(CCN(CC(C)C)CC2)N=5)=NC(=O)/C(C)=C\C=C\[C@H](C)[C@H](O)[C@@H](C)[C@@H](O)[C@@H](C)[C@H](OC(C)=O)[C@@H]1C | 5 µM | - | cell count | - | 11.6%
CCc1nc(N)nc(N)c1-c1ccc(Cl)cc1 | 4 µg/mL | Calf isolate | - | L929 | 74.21%
CN[C@@H]1[C@@H](O)[C@@H](O[C@@H]2[C@@H](O)[C@H](O[C@H]3O[C@H]([C@@H](C)O)[C@@H](O)[C@H](O)[C@H]3N)[C@@H](N)C[C@H]2N)OC[C@]1(C)O | 1000 µg/mL | - | - | APH-CACO-2 | 60%
COc1cc([C@@H]2c3cc4c(cc3[C@@H](O[C@@H]3O[C@@H]5CO[C@@H](c6cccs6)O[C@H]5[C@H](O)[C@H]3O)[C@H]3COC(=O)[C@H]23)OCO4)cc(OC)c1O | 1 µM | - | - | HCT-8 | 0%
Nc1ccc(S(=O)(=O)Nc2cnc3ccccc3n2)cc1 | 4 µg/mL | Human isolate | - | L929 | 83.15%
CC(C)[C@H](NC(=O)[C@H](CCCN=C(N)N)NC(=O)N[C@@H](Cc1ccccc1)C(=O)O)C(=O)N[C@H](C=O)CCCN=C(N)N | 5 µg/mL | - | - | - | 32.26%
CC[C@@H](C(=O)[C@@H](C)[C@@H](O)[C@H](C)CCc1ccc(C)c(O)c1C(=O)O)[C@H]1O[C@](CC)([C@H]2CC[C@](O)(CC)[C@H](C)O2)C[C@@H]1C | 1 µM | - | - | HCT-8 | 100%
NS(=O)(=O)c1cc([N+](=O)[O-])c(N(CCO)CCO)c([N+](=O)[O-])c1 | 10 µM | - | ELISA / luminescence | MDCK cells | 0%
CC(C)[C@H](NC(=O)[C@H](CCCN=C(N)N)NC(=O)N[C@@H](Cc1ccccc1)C(=O)O)C(=O)N[C@H](C=O)CCCN=C(N)N | 5 µg/mL | - | cell count / microscopy | - | 32.3%
CCCCc1cc2c(=O)c(C(=O)OC)c[nH]c2cc1OCc1ccccc1 | 0.032 µg/mL | Calf isolate | - | L929 | -10%
CCCCCCCCCCOc1cc2c(=O)c(C(=O)OCC)c[nH]c2cc1OCC | 50 µM | - | - | - | 0%
CO[C@@H]1[C@@H](O[C@@H]2O[C@H](C)[C@@H](O[C@H]3C[C@@](C)(O)[C@@H](O)[C@H](C)O3)[C@H](N(C)C)[C@H]2O)[C@@H](CC=O)C[C@@H](C)[C@@H](O[C@H]2CC[C@H](N(C)C)[C@H](C)O2)/C=C/C=C/C[C@@H](C)OC(=O)C[C@H]1O | 0.032 µg/mL | Calf isolate | - | L929 | 26.6%
Cc1c(O)cccc1C(=O)N[C@@H](CSc1ccccc1)[C@H](O)CN1C[C@H]2CCCC[C@H]2C[C@H]1C(=O)NC(C)(C)C | 2.5 µg/mL | - | - | HCT-8 | 15%
NC(=O)c1nc[nH]c1C(N)=O | 0.8 µg/mL | Human isolate | - | L929 | 41.71%
CC[C@H]1OC(=O)[C@H](C)[C@@H](O[C@H]2C[C@@](C)(OC)[C@@H](O)[C@H](C)O2)[C@H](C)[C@@H](O[C@@H]2O[C@H](C)C[C@H](N(C)C)[C@H]2O)[C@](C)(OC)C[C@@H](C)C(=O)[C@H](C)[C@@H](O)[C@]1(C)O | 5 µM | - | cell count | - | 10.3%
NC[C@@H]1O[C@H](O[C@H]2[C@@H](O)[C@H](O[C@@H]3[C@@H](O)[C@H](N)C[C@H](N)[C@H]3O[C@H]3O[C@H](CO)[C@@H](O)[C@H](O)[C@H]3N)O[C@@H]2CO)[C@H](N)[C@@H](O)[C@@H]1O | 100 µg/mL | - | - | HT29.74 | 62%
CO[C@@H]1[C@@H](OC)[C@H](C)[C@@](O)(CC(=O)O)O[C@H]1[C@H](C)[C@H]1O[C@@]2(CC[C@@](C)([C@H]3CC[C@@](C)([C@@H]4O[C@@H]([C@H]5O[C@](C)(O)[C@H](C)C[C@@H]5C)C[C@@H]4O[C@@H]4C[C@H](OC)[C@@H](OC)[C@H](C)O4)O3)O2)C[C@H](O)[C@H]1C | 0.5 µg/mL | - | - | - | 100%
C[C@H]1[C@H](O)[C@@H](C)/C=C/C=C/C=C/C=C/C=C/C=C/C=C/[C@H](O[C@@H]2O[C@H](C)[C@@H](O)[C@H](N)[C@@H]2O)C[C@@H]2O[C@](O)(C[C@@H](O)C[C@@H](O)CC[C@H](O)[C@@H](O)C[C@@H](O)CC(=O)O[C@H]1C)C[C@H](O)[C@H]2C(=O)O | 0.032 µg/mL | Calf isolate | - | L929 | -30.37%
NC[C@@H]1O[C@H](O[C@H]2[C@@H](O)[C@H](O[C@@H]3[C@@H](O)[C@H](N)C[C@H](N)[C@H]3O[C@H]3O[C@H](CO)[C@@H](O)[C@H](O)[C@H]3N)O[C@@H]2CO)[C@H](N)[C@@H](O)[C@@H]1O | 100 µM | - | - | Caco2 | 55%